Results published in patent EP0440303A1 (PROBICOM RESEARCH B.V., priority 1990, dated 1991).

Protein sequences, listed by entry. Tags and fused reporters are not part of them. Lines headed by an entry give the natural chain unless they say otherwise; changes in a name come on top.
UniProt P0C2T7: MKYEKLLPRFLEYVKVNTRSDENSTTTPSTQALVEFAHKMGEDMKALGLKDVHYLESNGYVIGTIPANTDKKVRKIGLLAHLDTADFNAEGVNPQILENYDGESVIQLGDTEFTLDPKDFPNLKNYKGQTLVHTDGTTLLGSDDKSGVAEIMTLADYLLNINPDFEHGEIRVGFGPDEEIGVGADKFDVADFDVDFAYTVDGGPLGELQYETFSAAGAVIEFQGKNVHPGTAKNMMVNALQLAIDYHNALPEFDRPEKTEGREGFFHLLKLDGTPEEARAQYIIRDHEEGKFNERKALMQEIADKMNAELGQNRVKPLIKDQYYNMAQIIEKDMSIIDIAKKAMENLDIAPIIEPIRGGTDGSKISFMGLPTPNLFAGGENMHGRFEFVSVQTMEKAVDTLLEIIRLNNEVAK

Biological target: tripeptidase of L.lactis subsp. cremoris Wg2 (Lactococcus lactis subsp. cremoris, UniProt P0C2T7)
Assay: Effects of chemical agents on the peptidase activity (leu3 hydrolysis)
Type: biochemical
Conditions: NEM 0.5 mM; cystine 0.05 mM; phenylarsine oxide 0.1 mM; DTT 1 mM; β-mercaptoethanol 0.4 mM; ferricyanide 3 mM after the reducing agents

For `O=[As]c1ccccc1` (stereo not shown), the “effect on the enzyme activity (in words)” value was “had no effect on the enzyme activity”.
